Results of unrelated studies side by side (data: NIAID ChemDB).

Shared fields: toxicity to cultured cells; read-out: CC50

An empty or dashed field is not shown.

{"structure": "CCc1nc(CCC(=O)O)cnc1CCC(=O)O", "cells": "SW-480", "read by": "MTT", "result": ">40 µg/mL"}
{"structure": "CS(=O)(=O)Nc1ccccc1-c1cc(=O)n(O)c2ncccc12", "cells": "HeLa", "result": "<100 µM"}
{"structure": "C[C@H](O)Cc1cc2c(O[C@H]3O[C@H](CO)[C@@H](O)[C@H]3O)ccc(O)c2c(=O)o1", "cells": "SMMC-7721", "read by": "MTT", "result": ">40 µg/mL"}
{"structure": "O=C(NCc1ccc(F)cc1)c1c(O)c2cccnc2n(O)c1=O", "cells": "HeLa", "result": "<100 µM"}
{"structure": "CCOC(=O)[C@@]1(C)CC[C@]2(C)CC[C@]3(C)C(=CC(=O)[C@@H]4[C@@]5(C)CC/C(=N\\OCc6ccsc6)C(C)(C)[C@@H]5CC[C@]43C)[C@@H]2C1", "cells": "CT26", "read by": "MTT", "result": "24.51 µM"}
{"structure": "COc1ccc(Cc2cc(C3CCN(C(=O)c4ccc5c(c4)OCO5)CC3)ncn2)cc1", "cells": "Jurkat cells (PMA-stimulated)", "result": "0.5 µM"}
{"structure": "COc1ccccc1CNc1cc(=O)n(O)c2ncccc12", "cells": "HeLa", "result": "0.09 µM"}
{"structure": "CCOC(=O)C1=C(CN2CC(F)(F)[C@@H]3[C@H]2CON3C[C@@H](F)C(C)(C)C(=O)O)NC(c2nc(C)cs2)=N[C@H]1c1cccc(F)c1C", "cells": "HepG2.2.15", "read by": "WST / absorbance", "result": "32.4 µM"}
{"structure": "COc1ccc(Cc2cc(C3CCN(C(=O)c4ccc5occc5c4)CC3)nc(N)n2)cc1", "cells": "Jurkat cells (PMA-stimulated)", "result": ">5 µM"}
{"structure": "CCOC(=O)C(Cc1ccccc1)NC(=O)NCCc1ccc2c(n1)NCCC2", "cells": "PBMC", "result": "14 µM"}
{"structure": "O=C1NC(=NCCc2ccc(Cl)c(Cl)c2)S/C1=C\\c1ccc(-c2ccc(C(=O)O)c(O)c2)o1", "cells": "HT-29", "read by": "MTT", "result": ">100 µM"}
{"structure": "CCOC(=O)COc1ccccc1CN(C(=O)c1ccc(-c2ccc3c(c2)OCO3)cc1)C(C)C", "cells": "HEK 293", "result": ">20 µM"}
{"structure": "CC[C@@H]1/C=C(\\C)C[C@H](C)C[C@H](OC)[C@H]2O[C@@](O)(C(=O)C(=O)N3CCCC[C@H]3C(=O)O[C@H](/C(C)=C/[C@H]3CC[C@H](O)[C@H](OC)C3)[C@H](C)[C@@H](O)CC1=O)[C@H](C)C[C@@H]2OC", "cells": "P-388", "result": "28 µg/mL"}
{"structure": "COc1cc2c(cc1OC)C(CC1(C)OCCO1)=NCC2", "cells": "BJ", "result": "<7.5 µM"}
{"structure": "CCOC(=O)c1c(O)c2cc(Cc3ccccc3)cnc2n(O)c1=O", "cells": "HeLa", "result": "<100 µM"}
{"structure": "Nc1nc(Cc2ccccc2)cc(C2CCN(C(=O)c3ccc4c(c3)OCO4)CC2)n1", "cells": "Jurkat cells (PMA-stimulated)", "result": "0.8 µM"}
{"structure": "O=C(NCCc1ccc2c(n1)NCCC2)Nc1ccc(OCc2ccccc2)cc1", "cells": "PBMC", "result": "7.9 µM"}
{"structure": "O=C1N=C(N2CCOCC2)S/C1=C\\c1ccc(-c2ccc(C(=O)O)c(O)c2)o1", "cells": "HEK 293", "read by": "MTT", "result": "53 µM"}
{"structure": "CCOC(=O)CCCCCOc1cccc(CN(C(=O)c2ccc(-c3cc(C(F)(F)F)cc(C(F)(F)F)c3)cc2)C(C)C)c1", "cells": "BJ", "result": ">20 µM"}
{"structure": "Nc1nc(C2CCN(C(=O)c3ccc4c(c3)OCO4)CC2)c2ccccc2n1", "cells": "Jurkat cells (PMA-stimulated)", "result": "2.6 µM"}
{"structure": "NCc1ccc(-c2ccc(Cc3cc(=O)n(O)c4ncccc34)cc2)cc1", "cells": "HeLa", "result": "0.13 µM"}
{"structure": "CCOC(=O)CCCCCOc1cccc(CN(C(=O)c2ccc(-c3ccc4c(c3)OCCO4)cc2)C(C)C)c1", "cells": "RAJI", "result": ">20 µM"}
{"structure": "CC(=O)Nc1cccc(CCNC(=O)Nc2cccc(F)c2)n1", "cells": "PBMC", "result": "50 µM"}
{"structure": "CCOC(=O)c1ccnc2c1c(-c1ccc(-c3ccc(CN)cc3)cc1)cc(=O)n2O", "cells": "HeLa", "result": "0.32 µM"}
{"structure": "CCOC(=O)C1=C(CN2CC(F)(F)[C@@H]3[C@H]2CON3C[C@@H](F)C(C)(C)C(=O)O)NC(c2nccs2)=N[C@H]1c1ccc(F)cc1Cl", "cells": "HepG2.2.15", "read by": "WST / absorbance", "result": ">25 µM"}
{"structure": "CCOC(=O)[C@@]1(C)CC[C@]2(C)CC[C@]3(C)C(=CC(=O)[C@@H]4[C@@]5(C)CC/C(=N\\OCc6ccc(C(=O)OC)o6)C(C)(C)[C@@H]5CC[C@]43C)[C@@H]2C1", "cells": "CT26", "read by": "MTT", "result": "31.28 µM"}
{"structure": "COC(=O)C1=C(CN2CC(F)(F)[C@@H]3[C@H]2CON3C[C@H](O)C(C)(C)C(=O)O)NC(c2nccs2)=N[C@H]1c1cccc(F)c1Cl", "cells": "HepG2.2.15", "read by": "WST / absorbance", "result": ">100 µM"}
{"structure": "CCOC(=O)[C@@]1(C)CC[C@]2(C)CC[C@]3(C)C(=CC(=O)[C@@H]4[C@@]5(C)CC/C(=N\\OCc6ccc(Br)cc6)C(C)(C)[C@@H]5CC[C@]43C)[C@@H]2C1", "cells": "CT26", "read by": "MTT", "result": "55.87 µM"}
{"structure": "COc1ccc(Cc2cc(C3CCN(C(=O)c4ccc5c(c4)OCO5)CC3)n[nH]2)cc1", "cells": "Jurkat cells (PMA-stimulated)", "result": ">5 µM"}
{"structure": "CCCN(Cc1ccc(OCC(=O)OCC)cc1)C(=O)c1ccc(-c2ccc3c(c2)OCO3)cc1", "cells": "HEK 293", "result": ">20 µM"}
{"structure": "CC(NC(=O)NCCc1ccc2c(n1)NCCC2)c1ccccc1", "cells": "PBMC", "result": "50 µM"}
{"structure": "CCOC(=O)c1ccc(CO/N=C2\\CC[C@]3(C)[C@H]4C(=O)C=C5[C@@H]6C[C@@](C)(C(=O)OCC)CC[C@]6(C)CC[C@@]5(C)[C@]4(C)CC[C@H]3C2(C)C)o1", "cells": "K562", "read by": "MTT", "result": "27.39 µM"}
{"structure": "CCOC(=O)CCCCOc1ccccc1C=O", "cells": "RAJI", "result": ">20 µM"}
{"structure": "CCOC(=O)[C@@]1(C)CC[C@]2(C)CC[C@]3(C)C(=CC(=O)[C@@H]4[C@@]5(C)CC/C(=N\\OCc6cccc(C)c6)C(C)(C)[C@@H]5CC[C@]43C)[C@@H]2C1", "cells": "CT26", "read by": "MTT", "result": "22.45 µM"}
{"structure": "O=c1cc(NCc2ccccc2)c2cccnc2n1O", "cells": "HeLa", "result": "<100 µM"}
{"structure": "O=C1NC(=Nc2ccc(F)c(Cl)c2)S/C1=C\\c1ccc(-c2ccc(C(=O)O)c(O)c2)o1", "cells": "Ramos", "read by": "MTT", "result": "3.1 µM"}
{"structure": "Cc1onc(-c2ccccc2)c1NC(=O)NCCc1ccc2c(n1)NCCC2", "cells": "PBMC", "result": "50 µM"}
{"structure": "COc1ccc(Cc2cc(C3CCN(C(=O)Cc4ccc5c(c4)OCO5)CC3)nc(N)n2)cc1", "cells": "Jurkat cells (PMA-stimulated)", "result": ">5 µM"}
{"structure": "CN(C(=O)CCc1ccc2c(n1)NCCC2)c1ccc(Cl)c(Cl)c1", "cells": "PBMC", "result": "13 µM"}
{"structure": "COC(=O)C1=C(CN2CC(F)(F)[C@@H]3[C@H]2CON3C[C@H](OC)C(C)(C)C(=O)O)NC(c2nccs2)=N[C@H]1c1ccc(F)c(F)c1C", "cells": "HepG2.2.15", "read by": "WST / absorbance", "result": ">50 µM"}
{"structure": "COc1cc(OC)c(NC(=O)NCCc2ccc3c(n2)NCCC3)cc1Cl", "cells": "PBMC", "result": "1.2 µM"}
{"structure": "CCOC(=O)C1=C(CN2CC(F)(F)[C@@H]3[C@H]2CON3C[C@@](C)(O)C(=O)O)NC(c2nccs2)=N[C@H]1c1cccc(F)c1C", "cells": "HepG2.2.15", "read by": "WST / absorbance", "result": ">50 µM"}
{"structure": "O=C(NCCc1ccc2c(n1)NCCC2)NCc1ccc(F)c(Cl)c1F", "cells": "PBMC", "result": "50 µM"}
{"structure": "O=c1cc(-c2ccncc2)c2cccnc2n1O", "cells": "HeLa", "result": "<100 µM"}
{"structure": "O=C(NCCc1ccc2c(n1)NCCC2)Nc1ccccc1I", "cells": "PBMC", "result": "7.3 µM"}
{"structure": "CCOC(=O)C1=C(CN2CC(F)(F)[C@@H]3[C@H]2CON3CC(F)(F)C(C)(C)C(=O)O)NC(c2nccs2)=N[C@H]1c1cccc(F)c1C", "cells": "HepG2.2.15", "read by": "WST / absorbance", "result": ">50 µM"}

Repeating the final 7 entries:

structure	cells	read by	result
COC(=O)C1=C(CN2CC(F)(F)[C@@H]3[C@H]2CON3C[C@H](OC)C(C)(C)C(=O)O)NC(c2nccs2)=N[C@H]1c1ccc(F)c(F)c1C	HepG2.2.15	WST / absorbance	>50 µM
COc1cc(OC)c(NC(=O)NCCc2ccc3c(n2)NCCC3)cc1Cl	PBMC	-	1.2 µM
CCOC(=O)C1=C(CN2CC(F)(F)[C@@H]3[C@H]2CON3C[C@@](C)(O)C(=O)O)NC(c2nccs2)=N[C@H]1c1cccc(F)c1C	HepG2.2.15	WST / absorbance	>50 µM
O=C(NCCc1ccc2c(n1)NCCC2)NCc1ccc(F)c(Cl)c1F	PBMC	-	50 µM
O=c1cc(-c2ccncc2)c2cccnc2n1O	HeLa	-	<100 µM
O=C(NCCc1ccc2c(n1)NCCC2)Nc1ccccc1I	PBMC	-	7.3 µM
CCOC(=O)C1=C(CN2CC(F)(F)[C@@H]3[C@H]2CON3CC(F)(F)C(C)(C)C(=O)O)NC(c2nccs2)=N[C@H]1c1cccc(F)c1C	HepG2.2.15	WST / absorbance	>50 µM

Conditions beyond the fields shown may differ between rows. CCn: concentration that lowers growth or viability of the cells by n%.